Numbering of substitutions follows the chain as printed.
B1: MX829 (bispecific antibody)
chain: DIQMTQSPSSVSASVGDRVIITCRASQGISSWLAWYQQKPGKAPKVLIYDASSLQSGVPSRFSGSGYGTDFTLTISSLQPEDSATYYCQQAKSFPITFGQGTRLEIKGGSSGEIVLTQSPGTLSLSPGERATLSCRASQSVSSSYLAWYQQKPGQAPRLLIYSASSRATGIPDRFSGSGSGTDFTLTISRLEPEDFAVYFCQQYVGLTGWTFGQGTKVEIKGGGGSGGSGSGGGGSASGSGQMQLVQSGPEVKKPGTSVKVSCKASGFTFTSSAVQWVRQRQRLEWIGWIVVGSGNTNYAQKFQERVTITRDMSTSTAYMELSSLRSEDTAVYYCAAPNCSNVVCYDGFDIWGQGTMVTVSSGGSSGQVQLVESGGGVVQPGRSLRLSCAASGFTFSSYAFHWVRQAPGKGLEWVAVISYDGSNQYYADSVKGRFTISRDNSKNTLYLQMNSLRADDTAVYYCARDLAIAVAGTWHYYNGMDVWGQGTTVTVSSASGGSGDKTHTCPPCPAPELLGGPSVFLFPPKPKDTLMISRTPEVTCVVVDVSHEDPEVKFNWYVDGVEVHNAKTKPREEQYNSYVVSVLTVLHQDWLNGKEYKCKVSNKALPAPIEKTISKAKGQPREPQVYTLPPSRDELTKNQVSLTCLVKGFYPSDIAVEWESNGQPENNYKTTPPVLDSDGSFFKKLTVDKSRWQQGNVFSCSVLHEALHSHYTQKSLSLSPG
B2: MX834 (trispecific antibody)
chain 1: QTVVTQEPSFSVSPGGTVTLTCGLSSGSVSTAYFPSWYQQTPGQAPRTLIYGTNTRSSGVPDRFSGSILGNKAALTITGAQADDESDYYCVLYMGRGIVVFGGGTKLTVLGGSSGEIVLTQSPGTLSLSPGERATLSCRASQSVSSSYLAWYQQKPGQAPRLLIYSASSRATGIPDRFSGSGSGTDFTLTISRLEPEDFAVYFCQQYVGLTGWTFGQGTKVEIKGGGGSGGSGSGGGGSASGSGQMQLVQSGPEVKKPGTSVKVSCKASGFTFTSSAVQWVRQRQRLEWIGWIVVGSGNTNYAQKFQERVTITRDMSTSTAYMELSSLRSEDTAVYYCAAPNCSNVVCYDGFDIWGQGTMVTVSSGGSSGQVQLVESGGGVVQPGRSLRLSCAASGFTLSSYGMHWVRQAPGKGLEWVAVISYDGSNKYYVDSVKGRFTISRDNSKNTLYLQMNSLRAEDTAVYYCRWAYWELLPDYYYGMDVWGQGTTVTVSSASGGSGDKTHTCPPCPAPELLGGPSVFLFPPKPKDTLMISRTPEVTCVVVDVSHEDPEVKFNWYVDGVEVHNAKTKPREEQYNSYVVSVLTVLHQDWLNGKEYKCKVSNKALPAPIEKTISKAKGQPREPQVYTLPPCRDELTKNQVSLWCLVKGFYPSDIAVEWESNGQPENNYKTTPPVLDSDGSFFKKLTVDKSRWQQGNVFSCSVLHEALHSHYTQKSLSLSPG
chain 2: B2 chain 1
B3: MX828 (bispecific antibody)
chain: B2 chain 1 with C632S, W644T
B4: MX838 (trispecific antibody)
chain 1: B2 chain 1 with V208G
chain 2: DIQMTQSPSSVSASVGDRVIITCRASQGISSWLAWYQQKPGKAPKVLIYDASSLQSGVPSRFSGSGYGTDFTLTISSLQPEDSATYYCQQAKSFPITFGQGTRLEIKGGSSGEIVLTQSPGTLSLSPGERATLSCRASQSVSSSYLAWYQQKPGQAPRLLIYSASSRATGIPDRFSGSGSGTDFTLTISRLEPEDFAVYFCQQYGGLTGWTFGQGTKVEIKGGGGSGGSGSGGGGSASGSGQMQLVQSGPEVKKPGTSVKVSCKASGFTFTSSAVQWVRQRQRLEWIGWIVVGSGNTNYAQKFQERVTITRDMSTSTAYMELSSLRSEDTAVYYCAAPNCSNVVCYDGFDIWGQGTMVTVSSGGSSGQVQLVESGGGVVQPGRSLRLSCAASGFTFSSYAFHWVRQAPGKGLEWVAVISYDGSNQYYADSVKGRFTISRDNSKNTLYLQMNSLRADDTAVYYCARDLAIAVAGTWHYYNGMDVWGQGTTVTVSSASGGSGDKTHTCPPCPAPELLGGPSVFLFPPKPKDTLMISRTPEVTCVVVDVSHEDPEVKFNWYVDGVEVHNAKTKPREEQYNSYVVSVLTVLHQDWLNGKEYKCKVSNKALPAPIEKTISKAKGQPREPQVCTLPPSRDELTKNQVSLSCAVKGFYPSDIAVEWESNGQPENNYKTTPPVLDSDGSFFLVSKLTVDKSRWQQGNVFSCSVLHEALHSHYTQKSLSLSPG
B5: MX837 (trispecific antibody)
chain 1: B2 chain 1
chain 2: B4 chain 2 with G205V
B6: MX835 (trispecific antibody)
chain 1: B2 chain 1 with V208G
chain 2: EIVLTQSPGTLSLSPGERATLSCRASQSVSSSYLAWYQQKPGQAPRLLIYSASSRATGIPDRFSGSGSGTDFTLTISRLEPEDFAVYFCQQYGGLTGWTFGQGTKVEIKGGSSGDIQMTQSPSSVSASVGDRVIITCRASQGISSWLAWYQQKPGKAPKVLIYDASSLQSGVPSRFSGSGYGTDFTLTISSLQPEDSATYYCQQAKSFPITFGQGTRLEIKGGGGSGGSGSGGGGSASGSGQVQLVESGGGVVQPGRSLRLSCAASGFTFSSYAFHWVRQAPGKGLEWVAVISYDGSNQYYADSVKGRFTISRDNSKNTLYLQMNSLRADDTAVYYCARDLAIAVAGTWHYYNGMDVWGQGTTVTVSSGGSSGQMQLVQSGPEVKKPGTSVKVSCKASGFTFTSSAVQWVRQRQRLEWIGWIVVGSGNTNYAQKFQERVTITRDMSTSTAYMELSSLRSEDTAVYYCAAPNCSNVVCYDGFDIWGQGTMVTVSSASGGSGDKTHTCPPCPAPELLGGPSVFLFPPKPKDTLMISRTPEVTCVVVDVSHEDPEVKFNWYVDGVEVHNAKTKPREEQYNSYVVSVLTVLHQDWLNGKEYKCKVSNKALPAPIEKTISKAKGQPREPQVCTLPPSRDELTKNQVSLSCAVKGFYPSDIAVEWESNGQPENNYKTTPPVLDSDGSFFLVSKLTVDKSRWQQGNVFSCSVLHEALHSHYTQKSLSLSPG

What was measured:
[1] = target: SARS-CoV-2 Omicron BA.1 spike protein (SARS-CoV-2, UniProt P0DTC2 14-1273); assay: cell-based or functional assay
[2] = target: SARS-CoV-2 Omicron BA.4/5 spike protein (F486V) (SARS-CoV-2, UniProt P0DTC2 14-1273); assay: cell-based or functional assay

Row | Binder | IC50, pseudovirus neutralization [1] [nM] | IC80, pseudovirus neutralization [1] [nM] | IC50, pseudovirus neutralization [2] [nM] | IC80, pseudovirus neutralization [2] [nM]
1 | B1 | 14 | 43 | 2 | 4
2 | B2 | 2 | 8 |  | 
3 | B3 | 1 | 3 | 86 | 438
4 | B4 | 1 | 4 | 9 | 18
5 | B5 | 2 | 7 | 9 | 17
6 | B6 | 2 | 8 | 8 | 30

Reference: patent US20240109955A1 (published 2024)
